Test results as given in patent US10029984B2, “Mono- or di-substituted indole derivatives as dengue viral replication inhibitors” (Janssen Pharmaceuticals, Inc., priority 2015, dated 2018).

Assays:
Format in all cases: cell-based, Dengue virus
DENV-2 16681 strain = assay: DENV-2 antiviral assay (eGFP-labeled virus in Vero cells); conditions: SI=CC50/EC50, DENV-2 antiviral assay
Description: The antiviral activity of all the compounds of the invention was tested against DENV-2 16681 strain which was labeled with enhanced green fluorescent protein (eGPF; Table 1). The culture medium consists of minimal essential medium supplemented with 2% of heat-inactivated fetal calf serum, 0.04% gentamycin (50 mg/mL) and 2 mM of L-glutamine. Vero cells, obtained from ECACC, were suspended in culture medium and 25 μL was added to 384-well plates (2500 cells/well), which already contain the antiviral compounds. Typically, these plates contain a 4-fold serial dilution of 9 dilution steps of the test compound at 200 times the final concentration in 100% DMSO (200 nL). In addition, each compound concentration is tested in quadruplicate (final concentration range: 25 μM-0.00038 μM). Finally, each plate contains wells which are assigned as virus controls (containing cells and virus in the absence of compound), cell controls (containing cells in the absence of virus and compound) and medium controls (containing medium in the absence of cells, virus and compounds). To the wells assigned as medium control, 25 μL of culture medium was added instead of Vero cells. Once the cells were added to the plates, the plates were incubated for 30 minutes at room temperature to allow the cells to distribute evenly within the wells. Next, the plates were incubated in a fully humidified incubator (37° C., 5% CO2) until the next day. Then, DENV-2 strain 16681, labeled with eGFP, was added at a multiplicity of infection (MOI) of 0.5. Therefore, 15 μL of virus suspension was added to all the wells containing test compound and to the wells assigned as virus control. In parallel, 15 μL of culture medium was added to the medium and cell controls. Next, the plates were incubated for 3 days in a fully humidified incubator (37° C., 5% CO2). At the day of the read out, the eGFP fluorescence was measured using an automated fluorescence microscope at 488 nm (blue laser). Using an in-house LIMS system, inhibition dose response curves for each compound were calculated and the half maximal effective concentration (EC50) was determined. Therefore, the percent inhibition (I) for every test concentration is calculated using the following formula: I=100*(ST−SCC)/(SVC−SCC); ST, SCC and SVC are the amount of eGFP signal in the test compound, cell control and virus control wells, respectively. The EC50 represents the concentration of a compound at which the virus replication is inhibited with 50%, as measured by a 50% reduction of the eGFP fluorescent intensity compared to the virus control. The EC50 is calculated using linear interpolation.

DENV-2 strain 16681 = assay: Tetravalent RT-qPCR assay Protocol A, serotype 2; conditions: RT-qPCR serotype 2 16681
Description: (§1) The antiviral activity of the compounds of the invention was tested against DENV-1 strain TC974#666 (NCPV; Table 6), DENV-2 strain 16681 (Table 7), DENV-3 strain H87 (NCPV; Table 8) and DENV-4 strains H241 (NCPV; Table 9) in a RT-qPCR assay. Therefore, Vero cells were infected with either DENV-1, or -2, or -3, or -4 in the presence or absence of test compounds. At day 3 post-infection, the cells were lysed and cell lysates were used to prepare cDNA of both a viral target (the 3′UTR of DENV; table 2) and a cellular reference gene (β-actin, table 2). Subsequently, a duplex real time PCR was performed on a Lightcycler480 instrument. The generated Cp value is inversely proportional to the amount of RNA expression of these targets. Inhibition of DENV replication by a test compound result in a shift of Cp's for the 3′UTR gene. On the other hand, if a test compound is toxic to the cells, a similar effect on β-actin expression will be observed. The comparative ΔΔCp method is used to calculate EC50, which is based on the relative gene expression of the target gene (3′UTR) normalized with the cellular housekeeping gene (β-actin).
(§2) The culture medium consisted of minimal essential medium supplemented with 2% of heat-inactivated fetal calf serum, 0.04% gentamycin (50 mg/mL) and 2 mM of L-glutamine. Vero cells, obtained from ECACC, were suspended in culture medium and 75 μL/well was added in 96-well plates (10000 cells/well), which already contain the antiviral compounds. Typically, these plates contain a 4-fold serial dilution of 9 dilution steps of the test compound at 200 times the final concentration in 100% DMSO (500 nL; final concentration range: 25 μM-0.00038 μM). In addition, each plate contains wells which are assigned as virus controls (containing cells and virus in the absence of compound) and cell controls (containing cells in the absence of virus and compound). Once the cells were added in the plates, the plates were incubated in a fully humidified incubator (37° C., 5% CO2) until the next day. Then, DENV-1 strain TC974#666 at an MOI of 0.6, DENV-2 strain 16681 at an MOI of 0.01, DENV-3 strain H87 at an MOI of 1.0 and DENV-4 strains H241 at an MOI of 0.2 and SG/06K2270DK1/2005 at an MOI of 0.16, were added. Therefore, 25 μL of virus suspension was added to all the wells containing test compound and to the wells assigned as virus control. In parallel, 25 μL of culture medium was added to the cell controls. Next, the plates were incubated for 3 days in a fully humidified incubator (37° C., 5% CO2). After 3 days, the supernatant was removed from the wells and the cells were washed twice with ice-cold PBS (˜100 μL). The cell pellets within the 96-well plates were stored at −80° C. for at least 1 day. Next, RNA was extracted using the Cells-to-CT™ lysis kit, according to the manufacture's guideline (Applied Biosystems). The cell lysates can be stored at −80° C. or immediately used in the reverse transcription step.
(§3) In preparation of the reverse transcription step, mix A (table 3A) was prepared and 7.57 μL/well was dispensed in a 96-well plate. After addition of 5 μL of the cell lysates, a five minute denaturation step at 75° C. was performed (table 3B). Afterwards, 7.43 μL of mix B was added (table 3C) and the reverse transcription step was initiated (table 3D) to generate cDNA.
(§4) Finally, a RT-qPCR mix was prepared, mix C (table 4A), dispensed in 96-well LightCycler qPCR plates to which 3 μL of cDNA was added and the qPCR was performed according to the conditions in table 4B on a LightCycler 480. Using the LightCycler software and an in-house LIMS system, dose response curves for each compound were calculated and the half maximal effective concentration (EC50) and the half maximal cytotoxic concentration (CC50) were determined.

DENV-4 strains H241 = assay: Tetravalent RT-qPCR assay Protocol A, serotype 4; conditions: RT-qPCR serotype 4 H241
Description: as §1, §2, §3, §4

COc1cc(NC(C(=O)c2c[nH]c3cc(Cl)ccc23)c2ccc(F)cc2OC)cc(S(C)(=O)=O)c1 (single isomer, unassigned) [Enantiomer 4B, 1-(6-chloro-1H-indol-3-yl)-2-(4-fluoro-2-methoxyphenyl)-2-((3-methoxy-5-(methylsulfonyl)phenyl)amino)ethanone] gave an SI (DENV-2 16681 strain; listed as 4B) of 814.

For COc1cc(NC(C(=O)c2c[nH]c3cc(F)c(F)cc23)c2ccc(F)cc2OC)cc(S(C)(=O)=O)c1 (single isomer, unassigned) [Enantiomer 7B, 1-(5,6-difluoro-1H-indol-3-yl)-2-(4-fluoro-2-methoxyphenyl)-2-((3-methoxy-5-(methylsulfonyl)phenyl)amino)ethanone], the SI (DENV-2 16681 strain; listed as 7B) was 216.

With COc1cc(NC(C(=O)c2c[nH]c3cc(C)c(F)cc23)c2ccc(F)cc2OC)cc(S(C)(=O)=O)c1 (single isomer, unassigned) [Enantiomer 9B, 2-(4-fluoro-2-methoxyphenyl)-1-(5-fluoro-6-methyl-1H-indol-3-yl)-2-((3-methoxy-5-(methylsulfonyl)phenyl)amino)ethanone] the SI (DENV-2 16681 strain; listed as 9B) was 212.

For COc1cc(NC(C(=O)c2c[nH]c3c(C)cc(F)cc23)c2ccc(F)cc2OC)cc(S(C)(=O)=O)c1 (racemic) [Compound 8, 2-(4-fluoro-2-methoxyphenyl)-1-(5-fluoro-7-methyl-1H-indol-3-yl)-2-((3-methoxy-5-(methylsulfonyl)phenyl)amino)ethanone], the SI (DENV-2 16681 strain) was 2710.

For COc1cc(NC(C(=O)c2c[nH]c3c(F)c(F)ccc23)c2ccc(F)cc2OC)cc(S(C)(=O)=O)c1 (single isomer, unassigned) [Enantiomer 13B, 1-(6,7-difluoro-1H-indol-3-yl)-2-(4-fluoro-2-methoxyphenyl)-2-((3-methoxy-5-(methylsulfonyl)phenyl)amino)ethanone], the SI (DENV-2 strain 16681) was 5492, the SI (DENV-4 strains H241) was 11 and the SI (DENV-2 16681 strain; listed as 13B*) was 6211.

COc1cc(NC(C(=O)c2c[nH]c3c(Cl)c(OC)ccc23)c2ccc(F)cc2OC)cc(S(C)(=O)=O)c1 (single isomer, unassigned) [Enantiomer 12B, 1-(7-chloro-6-methoxy-1H-indol-3-yl)-2-(4-fluoro-2-methoxyphenyl)-2-((3-methoxy-5-(methylsulfonyl)phenyl)amino)ethanone] gave an SI (DENV-2 16681 strain; listed as 12B) of over 1373.

Compound COc1cc(NC(C(=O)c2c[nH]c3c(C)c(F)ccc23)c2ccc(F)cc2OC)cc(S(C)(=O)=O)c1 (racemic) [Compound 2, 2-(4-fluoro-2-methoxyphenyl)-1-(6-fluoro-7-methyl-1H-indol-3-yl)-2-((3-methoxy-5-(methylsulfonyl)phenyl)amino)ethanone] has an SI (DENV-2 16681 strain) of 6338.

For COc1cc(NC(C(=O)c2c[nH]c3cc(OC)c(C)cc23)c2ccc(F)cc2OC)cc(S(C)(=O)=O)c1 (single isomer, unassigned) [Enantiomer 10A, 2-(4-fluoro-2-methoxyphenyl)-2-((3-methoxy-5-(methylsulfonyl)phenyl)amino)-1-(6-methoxy-5-methyl-1H-indol-3-yl)ethanone], the SI (DENV-2 16681 strain; listed as 10A) was 550.

Compound COc1cc(NC(C(=O)c2c[nH]c3c(C)cc(F)cc23)c2ccc(F)cc2OC)cc(S(C)(=O)=O)c1 (single isomer, unassigned) [Enantiomer 8B, 2-(4-fluoro-2-methoxyphenyl)-1-(5-fluoro-7-methyl-1H-indol-3-yl)-2-((3-methoxy-5-(methylsulfonyl)phenyl)amino)ethanone] has an SI (DENV-2 16681 strain; listed as 8B) of 45.

Work on COc1cc(NC(C(=O)c2c[nH]c3cc(OC)ccc23)c2ccc(F)cc2OC)cc(S(C)(=O)=O)c1 (racemic) [Compound 5, 2-(4-fluoro-2-methoxyphenyl)-1-(6-methoxy-1H-indol-3-yl)-2-((3-methoxy-5-(methylsulfonyl)phenyl)amino)ethanone] yielded an SI (DENV-2 16681 strain) of 10164.

COc1cc(NC(C(=O)c2c[nH]c3c(Cl)c(OC)ccc23)c2ccc(F)cc2OC)cc(S(C)(=O)=O)c1 (racemic) [Compound 12, 1-(7-chloro-6-methoxy-1H-indol-3-yl)-2-(4-fluoro-2-methoxyphenyl)-2-((3-methoxy-5-(methylsulfonyl)phenyl)amino)ethanone] was tested, and the SI (DENV-2 16681 strain) was over 65542.

COc1cc(NC(C(=O)c2c[nH]c3ccc(OC(F)(F)F)cc23)c2ccc(F)cc2OC)cc(S(C)(=O)=O)c1 (racemic) [Compound 18, 2-(4-fluoro-2-methoxyphenyl)-2-((3-methoxy-5-(methylsulfonyl)phenyl)amino)-1-(5-(trifluoromethoxy)-1H-indol-3-yl)ethanone] gave an SI (DENV-2 16681 strain) of over 15249.

In the case of COc1cc(NC(C(=O)c2c[nH]c3cc(F)ccc23)c2ccc(F)cc2OC)cc(S(C)(=O)=O)c1 (single isomer, unassigned) [Enantiomer 1B, 1-(6-fluoro-1H-indol-3-yl)-2-(4-fluoro-2-methoxyphenyl)-2-((3-methoxy-5-(methylsulfonyl)phenyl)amino)ethanone], the SI (DENV-2 16681 strain; listed as 1B) is reported as 283.

COc1cc(NC(C(=O)c2c[nH]c3c(C)c(Cl)ccc23)c2ccc(F)cc2OC)cc(S(C)(=O)=O)c1 (single isomer, unassigned) [Enantiomer 3B, 1-(6-chloro-7-methyl-1H-indol-3-yl)-2-(4-fluoro-2-methoxyphenyl)-2-((3-methoxy-5-(methylsulfonyl)phenyl)amino)ethanone] gave an SI (DENV-2 16681 strain; listed as 3B) of 324.
